Test results taken from US20240390459A1, “ANTI-DEPRESSION AND ANTI-ANXIETY APPLICATION OF POLYPEPTIDE AND COMPLEX” (SHENZHEN CHENYANG BIOLOGICAL TECHNOLOGY CO., LTD, priority 2021, published 2024).

Test system: mice
Experiment: Elevated plus maze test (EPM)
Assay type: in vivo, mouse
Conditions: single intraperitoneal 3 nmol/g, 1 hour after treatment, 5 min, vs TAT
Procedure: To evaluate the antianxiety-like effect of the polypeptide of the present invention, mice treated with TAT-5HT2AR-SV, TAT-5HT2AR-DV, TAT-5HT2AR-CT (all treated by single intraperitoneal administration, 3 nmol/g) were subjected to open field test (OFT) for measuring residence time in central area and elevated plus maze test (EPM) 1 hour after treatment, with TAT-treated mice as control. Methods for the tests are as follows:
EPM: consists of two open arms (25 cm×8 cm) and two closed arms (25 cm×8 cm), with the intersection as the central area (8 cm×8 cm), which is 40 cm high from the ground. 1 hour after treated with the polypeptide, mice were placed in the central area facing the open arm, and were recorded for their free activities for 5 min. After each animal was tested, the device was wiped with 70% alcohol. The residence time at the open arm, the residence time at the closed arm, and the total movement distance of mice were recorded.

| Molecule | EPM total movement ability (total movement distance) |
| --- | --- |
| TAT-5HT2AR-DV: DV region (D442-V471) of 5-HT2AR fused with TAT (DCSMVALGKQHSEEASKDNSDGVNEKVSCV; C-terminal region fused with TAT peptide; UniProt P28223 442-471, looked up, fragment) | did not affect the total movement ability of mice |
| TAT-5HT2AR-CT: CT region (K385-V471) of 5-HT2AR fused with TAT (peptide, UniProt P28223 385-471, looked up, fragment, C-terminal region fused with TAT peptide, CT region (K385-V471) of 5-HT2AR fused with TAT) KTYRSAFSRYIQCQYKENKKPLQLILVNTIPALAYKSSQLQMGQKKNSKQDAKTTDNDCSMVALGKQHSEEASKDNSDGVNEKVSCV | did not affect the total movement ability of mice |
